US20180009877A1 (ACADEMIA SINICA, published 2018)

Columns and labels:
polypeptide HER2/ECD [1] = target: T1, polypeptide HER2/ECD (human, UniProt P04626 23-646); assay: ELISA, IgG on immobilized HER2/ECD
polypeptide HER2/ECD [2] = target: T1, polypeptide HER2/ECD; assay: SPR (BIAcore), HER2/ECD immobilized, IgG in flow

B1: GH2-61 (antibody)
chain: DIQMTQSPSSLSASVGDRVTITCRASQDVGSNVAWYQQKPGKAPKLLISWSTSLYSGVPSRFSGSGSGTDFTLTISSLQPEDFATYYCQQYGGWPITFGQGTKVEIKRGGGGSIEGRSGGGGSEVQLVESGGGLVQPGGSLRLSCAASGFTINNWGIHWVRQAPGKGLEWVAGIWPYGGYTYYADSVKGRFTISADTSKNTAYLQMNSLRAEDTAVYYCARFYNHHGGVMDYWGQGTLVTVSSASAAA
Polypeptide HER2/ECD [1]
  EC50: 3.5 ng/mL
Polypeptide HER2/ECD [2]
  Kd: 0.27 nM
  koff: 0.000104 s⁻¹
  kon: 387000 M⁻¹ s⁻¹
